Experimental findings from article PMC5724010 (The Journal of Biological Chemistry, 2017) are described below.

In the test the test system is FplA. Nature of the test: Lipid-binding assay, phosphoinositides spotted onto PVDF. The conditions noted are these: freshly prepared PI library spotted 0 to 200 pmol on PVDF; Fig. 9.

Turning to phosphoinositide 3,4,5-trisphosphate, the “Binding of FplA to lipid” value is “even stronger affinity”. For phosphoinositide 3,5-bisphosphate the value was “even stronger affinity”; for phosphoinositide 4,5-bisphosphate, “preferentially bind”.
